Source: patent US10758467B2, “Highly substantive water-soluble UV absorbers and process for preparation thereof” (GALAXY SURFACTANTS LTD., priority 2018, dated 2020)

Assay: Substantivity to hair through rinse-off conditioner formulation (deposition on hair, re-extracted and quantified by UV spectroscopy)
Details: rinse-off conditioner with equimolar quantities (0.0015 gmoles) of UV absorber, 1.5 g hair tress, extracted by hot ethanol

Row | SMILES | Relative Substantivity
1 | COc1ccc(C=CC(=O)NCCC[N+](C)(C)CC(O)CO)cc1.[Cl-] (centres unmarked) [Example 5, p-methoxy cinnamidopropyl 2,3-dihydroxy propyl dimonium chloride] | 0.44 Mg/1.5 g of hair
2 | COc1ccc(C=CC(=O)NCCC[N+](C)(C)CC(O)C[N+](C)(C)C)cc1.[Cl-].[Cl-] (centres unmarked) [Example 2, p-methoxy cinnamidopropyl (2-hydroxypropyl trimethyl ammonium chloride) dimonium chloride] | 1.65 Mg/1.5 g of hair
